The exact form of at least one protein or probe is not confirmed. At least one verdict rests on a figure or table, not on a statement of the authors. Tags and fusion partners may be left off the protein sequences shown.
Molecular target: T1, PtxR (Pseudomonas aeruginosa PAO1) (UniProt P72131)
T1 sequence (looked up, limits assumed): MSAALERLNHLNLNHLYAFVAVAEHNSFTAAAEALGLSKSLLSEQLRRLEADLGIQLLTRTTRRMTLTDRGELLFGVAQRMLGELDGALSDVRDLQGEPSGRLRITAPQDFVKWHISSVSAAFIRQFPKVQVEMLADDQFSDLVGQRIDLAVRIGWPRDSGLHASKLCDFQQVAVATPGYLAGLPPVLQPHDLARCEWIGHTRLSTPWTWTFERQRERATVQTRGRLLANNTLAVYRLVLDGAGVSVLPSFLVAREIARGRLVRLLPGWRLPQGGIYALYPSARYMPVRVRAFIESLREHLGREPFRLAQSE
Experiment: DNase I footprinting
Conditions: recombinant protein; protein details: C-terminal His6 (pET24b); label: 32P end label; probe letters rebuilt from the primers and the genome

CAACTGATCGTTCGCGGCTCGACCCATCCACGCGGCTAGCGGCCCGCCGCCGGCGCGTTGCCGGCGGCTTTCGCACGGCTTGAAATGAAACCGGTTTCAGAGGATCGCCAATGTCCCTTCACCCCGTCTCCATCAGTCTTTCCAGCTATGGCGCGGACCTCGTTCGCAGTCGCGGCCAGGCCAGCTTCCTGCCCTTGCTGGCGATGGCCGGCGCGCAGCGCGTGGAACTGCGCGAGGAACTCTTCGCCGGCCCGCCGGATACCGAGGCGCTGACCGCCGCCATCCAGTT (double strand) [Pkgu promoter fragment]
binding result: binds

Reference: article PMC3402500, “Genes for Carbon Metabolism and the ToxA Virulence Factor in Pseudomonas aeruginosa Are Regulated through Molecular Interactions of PtxR and PtxS” (PLoS ONE, 2012)
